Results reported in patent US20170275639A1 (ARIZONA BOARD OF REGENTS ON BEHALF OF ARIZONA STATE …, published 2017).

T1: WNV (strain New York 1999), infectious virus (West Nile virus, strain New York 1999, UniProt Q9Q6P4 291-791)
T1 sequence (looked up): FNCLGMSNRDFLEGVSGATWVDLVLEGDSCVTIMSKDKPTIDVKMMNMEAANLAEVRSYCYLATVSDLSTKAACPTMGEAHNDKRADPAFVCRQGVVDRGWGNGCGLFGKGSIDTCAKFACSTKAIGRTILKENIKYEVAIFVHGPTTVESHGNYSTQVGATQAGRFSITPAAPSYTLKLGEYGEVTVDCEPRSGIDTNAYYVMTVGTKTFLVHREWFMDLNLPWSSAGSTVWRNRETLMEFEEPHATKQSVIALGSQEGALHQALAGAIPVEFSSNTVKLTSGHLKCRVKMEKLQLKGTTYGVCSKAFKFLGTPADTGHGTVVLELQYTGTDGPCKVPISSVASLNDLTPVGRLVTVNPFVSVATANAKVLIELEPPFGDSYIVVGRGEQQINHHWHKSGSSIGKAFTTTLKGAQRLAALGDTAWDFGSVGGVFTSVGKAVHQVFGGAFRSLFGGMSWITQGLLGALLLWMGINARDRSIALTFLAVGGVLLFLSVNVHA

B1: mHu-E16 (mammalian cell-produced Hu-E16) (antibody)
chain 1: QVQLVQSGAEVKKPGASVKVSCKASGYTFTDYWIEWVRQAPGQGLEWMGDILCGTGRTRYNEKLKARVTMTADTSTSTAYMELRSLRSDDTAVYYCARSASYGDYADYWGQGTTVTVSSASTKGPSVFPLAPSSKSTSGGTAALGCLVKDYFPEPVTVSWNSGALTSGVHTFPAVLQSSGLYSLSSVVTVPSSSLGTQTYICNVNHKPSNTKVDKRV[skipping human IgG1 Fc]
chain 2: DIVMTQSPDSLAVSLGERATINCKASQDVSTAVAWYQQKPGQPPKLLISWASTRHTGVPDRFSGSGSGTDFTLTISSLQAEDVAVYYCQQHYTTPLTFGQGTKLEIKRTVAAPSVFIFPPSDEQLKSGTASVVCLLNNFYPREAKVQWKVDNALQSGNSQESVTEQDSKDSTYSLSSTLTLSKADYEKHKVYACEVTHQGLSSPVTKSFNRGEC
B2: pHu-E16 (plant-derived humanized anti-West Nile virus MAb E16, produced in wild-type N. benthamiana) (antibody, human IgG1, kappa)
heavy: QVQLVQSGAEVKKPGASVKVSCKASGYTFTDYWIEWVRQAPGQGLEWMGDILCGTGRTRYNEKLKARVTMTADTSTSTAYMELRSLRSDDTAVYYCARSASYGDYADYWGQGTTVTVSSASTKGPSVFPLAPSSKSTSGGTAALGCLVKDYFPEPVTVSWNSGALTSGVHTFPAVLQSSGLYSLSSVVTVPSSSLGTQTYICNVNHKPSNTKVDKKV[skipping human IgG1 Fc]
light: DIVMTQSPDSLAVSLGERATINCKASQDVSTAVAWYQQKPGQPPKLLISWASTRHTGVPDRFSGSGSGTDFTLTISSLQAEDVAVYYCQQHYTTPLTFGQGTKLEIKRTVAAPSVFIFPPSDEQLKSGTASVVCLLNNFYPREAKVQWKVDNALQSGNSQESVTEQDSKDSTYSLSSTLTLSKADYEKHKVYACEVTHQGLSSPVTKSFNRGEC

Target: T1, WNV (strain New York 1999), infectious …
Test: cell-based or functional assay

Binder	EC50, focus reduction neutralization assay (Vero cells) [ng/mL]
B1	3.6
B2	3.7
